According to paper PMC12274840 (The Journal of Biological Chemistry, 2025):
Read-outs that look alike come from different tables or passages of the source.

Test system: E. coli KA797 cells carrying BlaC position 105 library
Assay type: cell-based, Escherichia coli
[1] = AA 105 Ala (BlaC I105A), relative to WT Ile
[2] = AA 105 Arg (BlaC I105R), relative to WT Ile
[3] = AA 105 Asn (BlaC I105N), relative to WT Ile
[4] = AA 105 Asp (BlaC I105D), relative to WT Ile
[5] = AA 105 Cys (BlaC I105C), relative to WT Ile
[6] = AA 105 Gln (BlaC I105Q), relative to WT Ile
[7] = AA 105 Glu (BlaC I105E), relative to WT Ile
[8] = AA 105 Gly (BlaC I105G), relative to WT Ile
[9] = AA 105 His (BlaC I105H), relative to WT Ile
[10] = AA 105 Ile (BlaC WT, reference)
[11] = AA 105 Leu (BlaC I105L), relative to WT Ile
[12] = AA 105 Lys (BlaC I105K), relative to WT Ile
[13] = AA 105 Met (BlaC I105M), relative to WT Ile
[14] = AA 105 Phe (BlaC I105F), relative to WT Ile
[15] = AA 105 Pro (BlaC I105P), relative to WT Ile
[16] = AA 105 Ser (BlaC I105S), relative to WT Ile
[17] = AA 105 Thr (BlaC I105T), relative to WT Ile
[18] = AA 105 Trp (BlaC I105W), relative to WT Ile
[19] = AA 105 Tyr (BlaC I105Y), relative to WT Ile
[20] = AA 105 Val (BlaC I105V), relative to WT Ile

SMILES: CC1(C)[C@H](C(=O)O)N2C(=O)C[C@H]2S1(=O)=O [sulbactam]
- Fi, Replicate 1 (relative fitness) [1]: 0.112
- Fi, Replicate 2 (relative fitness) [1]: -0.179
- Fi, Replicate 3 (relative fitness) [1]: 0.000672
- Fi, Replicate 1 (relative fitness) [2]: 0.089
- Fi, Replicate 2 (relative fitness) [2]: -0.130
- Fi, Replicate 3 (relative fitness) [2]: 0.039
- Fi, Replicate 1 (relative fitness) [3]: 0.405
- Fi, Replicate 2 (relative fitness) [3]: 0.102
- Fi, Replicate 3 (relative fitness) [3]: -0.006
- Fi, Replicate 1 (relative fitness) [4]: -0.017
- Fi, Replicate 2 (relative fitness) [4]: -0.193
- Fi, Replicate 3 (relative fitness) [4]: 0.029
- Fi, Replicate 1 (relative fitness) [5]: 0.011
- Fi, Replicate 2 (relative fitness) [5]: -0.341
- Fi, Replicate 3 (relative fitness) [5]: 0.318
- Fi, Replicate 1 (relative fitness) [6]: 0.237
- Fi, Replicate 2 (relative fitness) [6]: -0.273
- Fi, Replicate 3 (relative fitness) [6]: 0.247
- Fi, Replicate 1 (relative fitness) [7]: 0.278
- Fi, Replicate 2 (relative fitness) [7]: -0.187
- Fi, Replicate 3 (relative fitness) [7]: -0.065
- Fi, Replicate 1 (relative fitness) [8]: 0.119
- Fi, Replicate 2 (relative fitness) [8]: -0.211
- Fi, Replicate 3 (relative fitness) [8]: 0.160
- Fi, Replicate 1 (relative fitness) [9]: 0.365
- Fi, Replicate 2 (relative fitness) [9]: -0.009
- Fi, Replicate 3 (relative fitness) [9]: 0.044
- Fi, Replicate 1 (relative fitness) [10]: 0.000
- Fi, Replicate 2 (relative fitness) [10]: 0.000
- Fi, Replicate 3 (relative fitness) [10]: 0.000
- Fi, Replicate 1 (relative fitness) [11]: 0.258
- Fi, Replicate 2 (relative fitness) [11]: -0.062
- Fi, Replicate 3 (relative fitness) [11]: 0.106
- Fi, Replicate 1 (relative fitness) [12]: 0.030
- Fi, Replicate 2 (relative fitness) [12]: -0.083
- Fi, Replicate 3 (relative fitness) [12]: 0.180
- Fi, Replicate 1 (relative fitness) [13]: 0.135
- Fi, Replicate 2 (relative fitness) [13]: -0.055
- Fi, Replicate 3 (relative fitness) [13]: -0.126
- Fi, Replicate 1 (relative fitness) [14]: 0.325
- Fi, Replicate 2 (relative fitness) [14]: 0.093
- Fi, Replicate 3 (relative fitness) [14]: 0.197
- Fi, Replicate 1 (relative fitness) [15]: 0.163
- Fi, Replicate 2 (relative fitness) [15]: -0.102
- Fi, Replicate 3 (relative fitness) [15]: 0.107
- Fi, Replicate 1 (relative fitness) [16]: 0.265
- Fi, Replicate 2 (relative fitness) [16]: -0.123
- Fi, Replicate 3 (relative fitness) [16]: 0.107
- Fi, Replicate 1 (relative fitness) [17]: 0.112
- Fi, Replicate 2 (relative fitness) [17]: -0.113
- Fi, Replicate 3 (relative fitness) [17]: 0.036
- Fi, Replicate 1 (relative fitness) [18]: 0.339
- Fi, Replicate 2 (relative fitness) [18]: 0.073
- Fi, Replicate 3 (relative fitness) [18]: 0.243
- Fi, Replicate 1 (relative fitness) [19]: 0.274
- Fi, Replicate 2 (relative fitness) [19]: -0.056
- Fi, Replicate 3 (relative fitness) [19]: 0.045
- Fi, Replicate 1 (relative fitness) [20]: 0.278
- Fi, Replicate 2 (relative fitness) [20]: 0.017
- Fi, Replicate 3 (relative fitness) [20]: 0.069
